{
  "source": "patent US20240109955A1",
  "about": "(published 2024)",
  "binders": {"B1": {"name": "E12 (antibody, V domains shown)", "VH": "EVQLVESGGGLIQPGGSLRLSCAASGVIVSYNYMNWVRQAPGKGLEWVSVIYSGGSTFYADSVRGRFTISRDNSKNTLYLQMNSLRAEDTAVYYCARDLGPAGAFDIWGLGTMVTVSS", "VL": "EIVLTQSPGTLSLSPGETATLSCRASQSFSSDLAWYQQKPGQAPRLLIYGASSRATGIPDRFSGSGSGTDFTLTISRLEPADFAVYYCQQYGSSPPVTFGGGTKVEIK"}, "B2": {"name": "B8 (antibody, V domains shown)", "VH": "EVQLVESGGALIQPGGSLRLSCAASGIIVSANYMSWVRQAPGKGLEWVSVIYSGGSTFYADSVKGRFTISRDNSKNTLYLEMNSLRAEDTAVYYCARDAPILGVSDWGQGTLVTVSS", "VL": "EIVMTQSPAILSVSPGERATLSCRASQSVAINLAWYQQKPGQAPRLLIYAASSRATGIPGRFSGSGSETNFTLTISSLQSGDFAVYYCQQYITWPPSYTFGQGTKLEIK"}, "B3": {"name": "A23-58H/A23-58L93VGLTG (antibody, V domains shown)", "VH": "QMQLVQSGPEVKKPGTSVKVSCKASGFTFTSSAVQWVRQRQRLEWIGWIVVGSGNTNYAQKFQERVTITRDMSTSTAYMELSSLRSEDTAVYYCAAPNCSNVVCYDGFDIWGQGTMVTVSS", "VL": "EIVLTQSPGTLSLSPGERATLSCRASQSVSSSYLAWYQQKPGQAPRLLIYSASSRATGIPDRFSGSGSGTDFTLTISRLEPEDFAVYFCQQYVGLTGWTFGQGTKVEIK"}, "B4": {"name": "E8 (antibody, V domains shown)", "VH": "QVTLRESGPALVKPTQTLTLTCTFSGFSLSTRGVCVSWIRQPPGKALEWLAFIDWDDDKYYNTSLKTRLTISKDTSKNQVVLTMTNVHPVDTATYYCARISSHHGSSWCTTFDYWGQGALVTVSA", "VL": "DTVMTQSPLSLPVTPGEPASISCRSSQSLLNSNGYNYLDWYVQKPGQSPQLLIYLGSNRASGVPDRFSGSGSGTDFTLKISRVEAEDVGVYYCMQPLQTPLFTFGPGTKVEIK"}, "B5": {"name": "MX1054 (trispecific antibody)", "chain 1": "QTVVTQEPSFSVSPGGTVTLTCGLSSGSVSTAYFPSWYQQTPGQAPRTLIYGTNTRSSGVPDRFSGSILGNKAALTITGAQADDESDYYCVLYMGRGIVVFGGGTKLTVLGGSSGEIVMTQSPAILSVSPGERATLSCRASQSVAINLAWYQQKPGQAPRLLIYAASSRATGIPGRFSGSGSETNFTLTISSLQSGDFAVYYCQQYITWPPSYTFGQGTKLEIKGGGGSGGSGSGGGGSASGSGEVQLVESGGALIQPGGSLRLSCAASGIIVSANYMSWVRQAPGKGLEWVSVIYSGGSTFYADSVKGRFTISRDNSKNTLYLEMNSLRAEDTAVYYCARDAPILGVSDWGQGTLVTVSSGGSSGQVQLVESGGGVVQPGRSLRLSCAASGFTLSSYGMHWVRQAPGKGLEWVAVISYDGSNKYYVDSVKGRFTISRDNSKNTLYLQMNSLRAEDTAVYYCRWAYWELLPDYYYGMDVWGQGTTVTVSSASGGSGDKTHTCPPCPAPELLGGPSVFLFPPKPKDTLMISRTPEVTCVVVDVSHEDPEVKFNWYVDGVEVHNAKTKPREEQYNSYVVSVLTVLHQDWLNGKEYKCKVSNKALPAPIEKTISKAKGQPREPQVYTLPPCRDELTKNQVSLWCLVKGFYPSDIAVEWESNGQPENNYKTTPPVLDSDGSFFKKLTVDKSRWQQGNVFSCSVLHEALHSHYTQKSLSLSPG", "chain 2": "EIVMTQSPAILSVSPGERATLSCRASQSVAINLAWYQQKPGQAPRLLIYAASSRATGIPGRFSGSGSETNFTLTISSLQSGDFAVYYCQQYITWPPSYTFGQGTKLEIKGGSSGDTVMTQSPLSLPVTPGEPASISCRSSQSLLNSNGYNYLDWYVQKPGQSPQLLIYLGSNRASGVPDRFSGSGSGTDFTLKISRVEAEDVGVYYCMQPLQTPLFTFGPGTKVEIKGGGGSGGSGSGGGGSASGSGQVTLRESGPALVKPTQTLTLTCTFSGFSLSTRGVCVSWIRQPPGKALEWLAFIDWDDDKYYNTSLKTRLTISKDTSKNQVVLTMTNVHPVDTATYYCARISSHHGSSWCTTFDYWGQGALVTVSAGGSSGEVQLVESGGALIQPGGSLRLSCAASGIIVSANYMSWVRQAPGKGLEWVSVIYSGGSTFYADSVKGRFTISRDNSKNTLYLEMNSLRAEDTAVYYCARDAPILGVSDWGQGTLVTVSSASGGSGDKTHTCPPCPAPELLGGPSVFLFPPKPKDTLMISRTPEVTCVVVDVSHEDPEVKFNWYVDGVEVHNAKTKPREEQYNSYVVSVLTVLHQDWLNGKEYKCKVSNKALPAPIEKTISKAKGQPREPQVCTLPPSRDELTKNQVSLSCAVKGFYPSDIAVEWESNGQPENNYKTTPPVLDSDGSFFLVSKLTVDKSRWQQGNVFSCSVLHEALHSHYTQKSLSLSPG"}, "B6": {"name": "MX1062 (trispecific antibody)", "chain 1": "B5 chain 1", "chain 2": "DTVMTQSPLSLPVTPGEPASISCRSSQSLLNSNGYNYLDWYVQKPGQSPQLLIYLGSNRASGVPDRFSGSGSGTDFTLKISRVEAEDVGVYYCMQPLQTPLFTFGPGTKVEIKGGSSGEIVMTQSPAILSVSPGERATLSCRASQSVAINLAWYQQKPGQAPRLLIYAASSRATGIPGRFSGSGSETNFTLTISSLQSGDFAVYYCQQYITWPPSYTFGQGTKLEIKGGGGSGGSGSGGGGSASGSGEVQLVESGGALIQPGGSLRLSCAASGIIVSANYMSWVRQAPGKGLEWVSVIYSGGSTFYADSVKGRFTISRDNSKNTLYLEMNSLRAEDTAVYYCARDAPILGVSDWGQGTLVTVSSGGSSGQVTLRESGPALVKPTQTLTLTCTFSGFSLSTRGVCVSWIRQPPGKALEWLAFIDWDDDKYYNTSLKTRLTISKDTSKNQVVLTMTNVHPVDTATYYCARISSHHGSSWCTTFDYWGQGALVTVSAASGGSGDKTHTCPPCPAPELLGGPSVFLFPPKPKDTLMISRTPEVTCVVVDVSHEDPEVKFNWYVDGVEVHNAKTKPREEQYNSYVVSVLTVLHQDWLNGKEYKCKVSNKALPAPIEKTISKAKGQPREPQVCTLPPSRDELTKNQVSLSCAVKGFYPSDIAVEWESNGQPENNYKTTPPVLDSDGSFFLVSKLTVDKSRWQQGNVFSCSVLHEALHSHYTQKSLSLSPG"}, "B7": {"name": "MX1063 (trispecific antibody)", "chain 1": "EIVMTQSPAILSVSPGERATLSCRASQSVAINLAWYQQKPGQAPRLLIYAASSRATGIPGRFSGSGSETNFTLTISSLQSGDFAVYYCQQYITWPPSYTFGQGTKLEIKGGSSGQTVVTQEPSFSVSPGGTVTLTCGLSSGSVSTAYFPSWYQQTPGQAPRTLIYGTNTRSSGVPDRFSGSILGNKAALTITGAQADDESDYYCVLYMGRGIVVFGGGTKLTVLGGGGSGGSGSGGGGSASGSGQVQLVESGGGVVQPGRSLRLSCAASGFTLSSYGMHWVRQAPGKGLEWVAVISYDGSNKYYVDSVKGRFTISRDNSKNTLYLQMNSLRAEDTAVYYCRWAYWELLPDYYYGMDVWGQGTTVTVSSGGSSGEVQLVESGGALIQPGGSLRLSCAASGIIVSANYMSWVRQAPGKGLEWVSVIYSGGSTFYADSVKGRFTISRDNSKNTLYLEMNSLRAEDTAVYYCARDAPILGVSDWGQGTLVTVSSASGGSGDKTHTCPPCPAPELLGGPSVFLFPPKPKDTLMISRTPEVTCVVVDVSHEDPEVKFNWYVDGVEVHNAKTKPREEQYNSYVVSVLTVLHQDWLNGKEYKCKVSNKALPAPIEKTISKAKGQPREPQVYTLPPCRDELTKNQVSLWCLVKGFYPSDIAVEWESNGQPENNYKTTPPVLDSDGSFFKKLTVDKSRWQQGNVFSCSVLHEALHSHYTQKSLSLSPG", "chain 2": "B5 chain 2"}},
  "data": [
    {"target": "SARS-CoV-2 spike protein, Omicron sublineage XBB (SARS-CoV-2, UniProt P0DTC2 14-1273)", "assay": "cell-based or functional assay", "units": {"IC50, pseudovirus neutralization": "nM", "IC80, pseudovirus neutralization": "nM"}, "values": [
      {"binder": "B1", "IC50, pseudovirus neutralization": 12.7, "IC80, pseudovirus neutralization": 31.1},
      {"binder": "B2", "IC50, pseudovirus neutralization": 13.4, "IC80, pseudovirus neutralization": 47.2},
      {"binder": "B3", "IC50, pseudovirus neutralization": "> 10000", "IC80, pseudovirus neutralization": "> 10000"},
      {"binder": "B4", "IC50, pseudovirus neutralization": 61.5, "IC80, pseudovirus neutralization": 705}
    ]},
    {"target": "SARS-CoV-2 spike protein, Omicron sublineage XBB1.5 (SARS-CoV-2, UniProt P0DTC2 14-1273)", "assay": "cell-based or functional assay", "units": {"IC50, pseudovirus neutralization": "nM", "IC80, pseudovirus neutralization": "nM"}, "values": [
      {"binder": "B1", "IC50, pseudovirus neutralization": 61.7, "IC80, pseudovirus neutralization": 183},
      {"binder": "B2", "IC50, pseudovirus neutralization": 43.5, "IC80, pseudovirus neutralization": 143},
      {"binder": "B3", "IC50, pseudovirus neutralization": "> 10000", "IC80, pseudovirus neutralization": "> 10000"},
      {"binder": "B4", "IC50, pseudovirus neutralization": 284, "IC80, pseudovirus neutralization": 319}
    ]},
    {"target": "SARS-CoV-2 spike (S) protein, Omicron sublineage BA.4/5 (SARS-CoV-2)", "assay": "cell-based or functional assay", "units": {"IC50, pseudovirus neutralization": "µg/mL", "IC80, pseudovirus neutralization": "µg/mL"}, "values": [
      {"binder": "B5", "IC50, pseudovirus neutralization": 0.00955, "IC80, pseudovirus neutralization": 0.0472},
      {"binder": "B6", "IC50, pseudovirus neutralization": 0.0158, "IC80, pseudovirus neutralization": 0.0216},
      {"binder": "B7", "IC50, pseudovirus neutralization": 0.00502, "IC80, pseudovirus neutralization": 0.0267}
    ]},
    {"target": "SARS-CoV-2 spike (S) protein, Omicron sublineage BQ.1 (SARS-CoV-2)", "assay": "cell-based or functional assay", "units": {"IC50, pseudovirus neutralization": "µg/mL", "IC80, pseudovirus neutralization": "µg/mL"}, "values": [
      {"binder": "B5", "IC50, pseudovirus neutralization": 0.025, "IC80, pseudovirus neutralization": 0.0535},
      {"binder": "B6", "IC50, pseudovirus neutralization": 0.0179, "IC80, pseudovirus neutralization": 0.0924},
      {"binder": "B7", "IC50, pseudovirus neutralization": 0.0143, "IC80, pseudovirus neutralization": 0.0561}
    ]},
    {"target": "SARS-CoV-2 spike (S) protein, Omicron sublineage BQ.1.1 (SARS-CoV-2)", "assay": "cell-based or functional assay", "units": {"IC50, pseudovirus neutralization": "µg/mL", "IC80, pseudovirus neutralization": "µg/mL"}, "values": [
      {"binder": "B5", "IC50, pseudovirus neutralization": 0.0205, "IC80, pseudovirus neutralization": 0.0386},
      {"binder": "B6", "IC50, pseudovirus neutralization": 0.0178, "IC80, pseudovirus neutralization": 0.0204},
      {"binder": "B7", "IC50, pseudovirus neutralization": 0.0228, "IC80, pseudovirus neutralization": 0.0551}
    ]},
    {"target": "SARS-CoV-2 spike (S) protein, Omicron sublineage BA.2.75.2 (SARS-CoV-2)", "assay": "cell-based or functional assay", "units": {"IC50, pseudovirus neutralization": "µg/mL", "IC80, pseudovirus neutralization": "µg/mL"}, "values": [
      {"binder": "B5", "IC50, pseudovirus neutralization": 0.0131, "IC80, pseudovirus neutralization": 0.0354},
      {"binder": "B6", "IC50, pseudovirus neutralization": 0.0162, "IC80, pseudovirus neutralization": 0.0345},
      {"binder": "B7", "IC50, pseudovirus neutralization": 0.00841, "IC80, pseudovirus neutralization": 0.021}
    ]},
    {"target": "SARS-CoV-2 spike (S) protein, Omicron sublineage XBB (SARS-CoV-2)", "assay": "cell-based or functional assay", "units": {"IC50, pseudovirus neutralization": "µg/mL", "IC80, pseudovirus neutralization": "µg/mL"}, "values": [
      {"binder": "B5", "IC50, pseudovirus neutralization": 0.0177, "IC80, pseudovirus neutralization": 0.0299},
      {"binder": "B6", "IC50, pseudovirus neutralization": 0.0183, "IC80, pseudovirus neutralization": 0.0393},
      {"binder": "B7", "IC50, pseudovirus neutralization": 0.00662, "IC80, pseudovirus neutralization": 0.0181}
    ]}
  ]
}
